Data published in publication PMC9152305, “Structural and biochemical mechanism for increased infectivity and immune evasion of Omicron BA.2 variant compared to BA.1 and their possible mouse origins” (2022).

Assays:
[1] = molecular target: human ACE2 N-terminal peptidase domain (aa 19-615), monomeric (human) (UniProt Q9BYF1); test: BLI
[2] = molecular target: mouse ACE2 N-terminal peptidase domain (aa 19-615) (mouse) (UniProt Q8R0I0); test: BLI
[3] = molecular target: mouse ACE2 N-terminal peptidase domain (aa 19-615) (mouse) (UniProt Q8R0I0); test: cryo-EM structure

SARS-CoV-2 Omicron BA.1 spike extracellular domain trimer (domain or fragment)
Kd [1]: 6.4 nM
Kd [2]: 9.1 nM
stoichiometry N (mACE2 per spike trimer) [3]: 1 and 2

Where “and” joins values, the source holds several entries; their conditions need not be identical. Equal values may be shown once.
